Compound potency records, mixed from different reports. Data source: NIAID ChemDB in PubChem.

Shared fields: tests on isolated targets; agent: HIV-1; target: Reverse transcriptase; read-out: IC50

Rows are shuffled and stem from different studies.

| smiles | strain | changes | read by | value |
|---|---|---|---|---|
| CCC1(c2cccc(COc3ccccc3)c2)Oc2ccccc2-n2cccc2C1=O | - | RT-V106A | nucleotide incorporation / radiometric | 8.3 µM |
| Cc1cc(C)c(-n2nnnc2SCC(=O)Nc2ccccc2I)c(C)c1 | - | - | nucleotide incorporation / radiometric | <2 µM |
| Cc1cc(S(N)(=O)=O)ccc1NC(=O)COc1ccc(Cl)cc1C(=O)c1cc(Cl)cc(C#N)c1 | WT | - | fluorescence | 0.0018 µM |
| CCC1(c2ccc(COc3ccccc3Cl)cc2)Oc2ccccc2-n2cccc2C1=O | - | RT-K103N | nucleotide incorporation / radiometric | 5 µM |
| Cc1ccc(-n2nnnc2SCC(=O)Nc2ccc(C)c([N+](=O)[O-])c2)cc1 | - | - | nucleotide incorporation / radiometric | <2 µM |
| Cc1cn([C@H]2C=C[C@@H](COP(=O)(O)OP(=O)(O)OP(=O)(O)O)O2)c(=O)[nH]c1=O | - | RT-E138K | nucleotide incorporation / radiometric | 0.16 µM |
| CCN1c2ncc(CCOc3cc[n+]([O-])cc3)cc2C(=O)N(C)c2ccc(Cl)nc21 | WT | - | nucleotide incorporation / radiometric | <1 µM |
| c1ccc(C2SCc3nc4ccccc4n32)cc1 | - | RT-I135T | - | >50 µM |
| CCN1c2ncc(CSc3ncnc4[nH]ncc34)cc2C(=O)N(C)c2ccc(Cl)nc21 | - | RT-Y181C | nucleotide incorporation / radiometric | <1 µM |
| CCC1(c2ccc(COc3cccc(Cl)c3)cc2)Oc2ccccc2-n2cccc2C1=O | WT | - | nucleotide incorporation / radiometric | 0.1 µM |
| CCN1c2ncc(COc3cc[n+]([O-])cc3)cc2C(=O)N(C)c2cccnc21 | - | RT-Y181C | nucleotide incorporation / radiometric | >1 µM |
| CN(C)c1ccc(-n2nnnc2SCC(=O)Nc2ccccc2Cl)c2ccccc12 | - | - | nucleotide incorporation / radiometric | <2 µM |
| CCN1c2ncc(CS(=O)c3ccccc3)cc2C(=O)N(C)c2ccc(Cl)nc21 | - | RT-Y181C | nucleotide incorporation / radiometric | <1 µM |
| CCC1(c2ccc(COc3cccnc3)cc2)Oc2ccccc2-n2cccc2C1=O | - | RT-K103N | nucleotide incorporation / radiometric | 2 µM |

Repeating the final 2 entries:

{"smiles": "CCN1c2ncc(CS(=O)c3ccccc3)cc2C(=O)N(C)c2ccc(Cl)nc21", "changes": "RT-Y181C", "read by": "nucleotide incorporation / radiometric", "value": "<1 µM"}
{"smiles": "CCC1(c2ccc(COc3cccnc3)cc2)Oc2ccccc2-n2cccc2C1=O", "changes": "RT-K103N", "read by": "nucleotide incorporation / radiometric", "value": "2 µM"}

ICn: concentration for n% inhibition. An empty or dashed field is not shown.